Experimental data published in patent publication US6362166B1, “Antipicornaviral compounds and methods for their use and preparation” (Agouron Pharmaceuticals, Inc., priority 1996, dated 2002).

System: CVB-3
Assay: Anticoxsackieviral HI-HeLa Cell Culture Assay (XTT dye reduction)
Type: cell-based, Coxsackie strain B-3 (CVB-3)
Details: therapeutic index = CC50 divided by EC50; CVB-3, HI-HeLa
Protocol: Specifically, HI-HeLa cells were infected wtih […] at a multiplicity of infection (m.o.i.) of 0.08 or mock-infected with medium only. Infected or mock-infected cells were resuspended at 8×10^5 cells per mL and incubated with appropriate concentrations of compound. One day later, XTT/PMS were added to test plates and the amount of formazan produced was quantified spectrophotometrically at 450/650 nm. […] The therapeutic index (TI) was calculated by dividing the CC50 by the EC50.
The Coxsackie strain B-3 (CVB-3) was purchased from American Type Culture Collection (ATCC). Virus stocks were propgated and antiviral assays were performed in Hi-HeLa cells (ATCC). Cells were grown in Minimal Essential Medium with 10% fetal bovine serum.

Compound	TI
CCOC(=O)/C=C/[C@H](CCC(N)=O)NC(=O)[C@H](Cc1ccccc1)NC(=O)[C@H](CC(C)C)NC(=O)OCc1ccccc1 [Compound 3, Ethyl-3-(CBZ-L-Leu-L-Phe-L-Gln)-E-Propenoate]	>8
COC(=O)/C=C/[C@H](CCC(N)=O)NC(=O)[C@H](Cc1ccccc1)NC(=O)[C@H](CC(C)C)NC(=O)OCc1ccccc1 [Compound 11, Methyl-3-(CBZ-L-Leu-L-Phe-L-Gln)-E-Propenoate]	>35
CC(C)C[C@H](NC(=O)OCc1ccccc1)C(=O)N[C@@H](Cc1ccccc1)C(=O)N[C@H](/C=C/C(=O)N1CCCC1)CCC(N)=O [Compound 21, 1-Pyrrolidin-1-yl-3-(CBZ-L-Leu-L-Phe-L-Gln)-E-Propenone]	>2
CC(C)C[C@H](NC(=O)OCc1ccccc1)C(=O)N[C@@H](Cc1ccccc1)C(=O)N[C@H](/C=C/C(=O)c1ccccc1)CCC(N)=O [Compound 24, 1-Phenyl-3-(CBZ-L-Leu-L-Phe-L-Gln)-E-Propenone]	1

System: HRV-14
Assay: Antirhinoviral HI-HeLa Cell Culture Assay (Cell Protection Assay, XTT dye reduction)
Type: cell-based, human rhinovirus (HRV) serotype-14
Details: therapeutic index = CC50 divided by EC50; HRV-14, HI-HeLa
Protocol: In the Cell Protection Assay, the ability of compounds to protect cells against HRV infection was measured by the XTT dye reduction method. This method is described in Weislow, O. S., R. Kiser, D. L. Fine, J. Bader, R. H. Shoemaker, and M. R. Boyd, J. Natl. Cancer Inst. 1989, 81, 577-586, which is incorporated herein by reference.
HI-HeLa cells were infected with HRV-14 at a multiplicity of infection (m.o.i.) of 0.13 (virus particles/cell) or mock-infected with medium only. Infected or mock-infected cells were resuspended at 8×10^5 cells per mL and incubated with appropriate concentration of compounds of formulas I and II. Two days later, XTT/PMS was added to test plates and the amount of formazan produced was quantified spectrophotometrically at 450/650 nm. […] The therapeutic index (TI) was calculated by dividing the CC50 by the EC50.
All strains of human rhinovirus (HRV) for use in this assay were purchased from American Type Culture Collection (ATCC), except for HRV serotype-14, which was produced from the infectious cDNA clone, constructed and supplied to us by Dr. Roland Rueckert at the Institue for Molecular Virology, University of Wisconsin, Madison, Wisc. HRV stocks were propagated, and antiviral assays were perforemd in HI-HeLa cells (ATCC). Cells were grwon in Minimal Essential Medium, available from Life Technologies, with 10% fetal bovine serum.
The compounds were tested against control compounds WIN 51711, WIN 52084, and WIN 54954, all obtained from Sterling-Winthrop Pharmaceuticals, and control compound Pirodavir, obtained from Janssen Pharmaceuticals.

Compound	TI
CCOC(=O)/C=C/[C@H](CCC(N)=O)NC(=O)[C@H](Cc1ccccc1)NC(=O)[C@H](CC(C)C)NC(=O)OCc1ccccc1 [Compound 3, Ethyl-3-(CBZ-L-Leu-L-Phe-L-Gln)-E-Propenoate]	>525
COC(=O)/C=C/[C@H](CCC(N)=O)NC(=O)[C@H](Cc1ccccc1)NC(=O)[C@H](CC(C)C)NC(=O)OCc1ccccc1 [Compound 11, Methyl-3-(CBZ-L-Leu-L-Phe-L-Gln)-E-Propenoate]	>246
CC(C)C[C@H](NC(=O)OCc1ccccc1)C(=O)N[C@@H](Cc1ccccc1)C(=O)N[C@H](/C=C/C(=O)N1CCCC1)CCC(N)=O [Compound 21, 1-Pyrrolidin-1-yl-3-(CBZ-L-Leu-L-Phe-L-Gln)-E-Propenone]	>5
CC(C)C[C@H](NC(=O)OCc1ccccc1)C(=O)N[C@@H](Cc1ccccc1)C(=O)N[C@H](/C=C/C(=O)c1ccccc1)CCC(N)=O [Compound 24, 1-Phenyl-3-(CBZ-L-Leu-L-Phe-L-Gln)-E-Propenone]	4
CCOC(=O)/C=C/[C@H](CCC(N)=O)NC(=O)[C@H](Cc1ccccc1)NC(=O)[C@H](CO)NC(=O)OCc1ccccc1 [Compound 149]	>180
CCOC(=O)/C=C/[C@H](CCC(N)=O)NC(=O)[C@H](Cc1ccccc1)NC(=O)[C@@H](NC(=O)OCc1ccccc1)C(C)(C)C [Compound 151]	555
CCOC(=O)/C=C/[C@H](CCC(N)=O)NC(=O)[C@H](Cc1ccccc1)NC(=O)[C@@H](NC(=O)OCc1ccccc1)C(C)O (some centres unmarked) [Compound 152]	>180
CCOC(=O)/C=C/[C@H](CCC(N)=O)NC(=O)[C@H](Cc1ccccc1)NC(=O)[C@H](CSc1ccccc1)NC(=O)OCc1ccccc1 [Compound 153]	>2667
CCOC(=O)/C=C/[C@H](CCC(N)=O)NC(=O)[C@H](Cc1ccccc1)NC(=O)[C@H](CCC(=O)O)NC(=O)OCc1ccccc1 [Compound 154]	>58
CCOC(=O)C=CC(CCC(N)=O)NC(=O)C(Cc1ccc(C)cc1)NC(=O)C(CC(C)C)NC(=O)OCc1ccccc1 (centres unmarked) [Compound 155]	>1778
CCOC(=O)/C=C/[C@H](CCC(N)=O)NC(=O)[C@H](Cc1ccccc1)NC(=O)[C@H](Cc1ccccc1)NC(=O)OCc1ccccc1 [Compound 157]	>571
CCOC(=O)/C=C/[C@H](CCC(N)=O)NC(=O)[C@H](Cc1ccccc1)NC(=O)[C@H](CC(=O)N(C)C)NC(=O)OCc1ccccc1 [Compound 158]	>54
CCOC(=O)/C=C/[C@H](CCC(N)=O)NC(=O)[C@H](Cc1ccccc1)NC(=O)[C@H](CC(=O)O)NC(=O)OCc1ccccc1 [Compound 159]	>133
CCOC(=O)/C=C/[C@H](CCC(N)=O)NC(=O)[C@H](Cc1ccccc1)NC(=O)[C@H](Cc1ccccc1)NC(=O)SCc1ccccc1 [Compound 161]	>588
CCOC(=O)/C=C/[C@H](CCC(N)=O)NC(=O)[C@H](Cc1ccccc1)NC(=O)[C@H](CCc1ccccc1)NC(=O)SCc1ccccc1 [Compound 162]	>312
CC(C)C[C@H](NC(=O)OCc1ccccc1)C(=O)N[C@@H](Cc1ccccc1)C(=O)N[C@H](/C=C/C(=O)OCC(C)(C)C)CCC(N)=O [Compound 163]	>200
CC(=O)N1CC/C(=C\[C@H](CCC(N)=O)NC(=O)[C@H](Cc2ccccc2)NC(=O)[C@H](CC(C)C)NC(=O)OCc2ccccc2)C1=O [Compound 164]	>141
CCOC(=O)/C=C/[C@H](CCC(N)=O)NC(=O)[C@H](Cc1ccccc1)NC(=O)[C@H](CSCc1ccccc1)NC(=O)OCc1ccccc1 [Compound 165]	>500
CCOC(=O)/C=C/[C@H](CCC(N)=O)NC(=O)[C@H](Cc1ccccc1)NC(=O)[C@H](C[S+]([O-])Cc1ccccc1)NC(=O)OCc1ccccc1 (some centres unmarked) [Compound 166]	>18
CCOC(=O)/C=C/[C@H](CCC(N)=O)NC(=O)[C@H](Cc1ccccc1)NC(=O)[C@@H](NC(=O)SCC)C(C)(C)C [Compound 167, Ethyl-3-[Ethylthiocarbonyl-L-α-(t-Butyl-Gly)-L-Phe-L-Gln]-E-Propenoate]	>1204

Compound	TI
CCOC(=O)/C(C)=C/[C@H](CCC(N)=O)NC(=O)[C@H](Cc1ccccc1)NC(=O)[C@@H](NC(=O)SCC)C(C)(C)C [Compound 168, Ethyl-2-Methyl-3-[Ethylthiocarbonyl-L-α-(t-Butyl-Gly)-L-Phe-L-Gln]-E-Propenoate]	>312
CCOC(=O)/C=C/[C@H](CCC(N)=O)NC(=O)[C@H](Cc1ccccc1)NC(=O)[C@H](CC(C)C)NC(=O)SC(C)C [Compound 170]	>500
CCOC(=O)/C(C)=C/[C@H](CCC(N)=O)NC(=O)[C@H](Cc1ccccc1)NC(=O)[C@H](CC(C)C)NC(=O)SC(C)C [Compound 171]	>140
CCOC(=O)C=CC(CCC(N)=O)NC(=O)C(Cc1ccccc1)NC(=O)C(NC(=O)OCc1ccccc1)C(C)CC (centres unmarked) [Compound 172]	>126
CCOC(=O)/C=C/[C@H](CCC(N)=O)NC(=O)[C@H](Cc1ccccc1)NC(=O)[C@H](CSc1ccccc1)NC(=O)SC1CCCC1 [Compound 173, Ethyl-3-[Cyclopentylthiocarbonyl-L-(S-Ph-Cys)-L-Phe-L-Gln]-E-Propenoate]	>1250
CCOC(=O)/C=C/[C@H](CCC(N)=O)NC(=O)[C@H](Cc1ccc(C)cc1)NC(=O)[C@@H](NC(=O)SC1CCCC1)C(C)(C)C [Compound 174, Ethyl-3-[Cyclopentylthiocarbonyl-L-α-(t-Butyl-Gly)-L-(4-Me-Phe)-L-Gln]-E-Propenoate]	>1786
CCOC(=O)/C(C)=C/[C@H](CCC(N)=O)NC(=O)[C@H](Cc1ccc(C)cc1)NC(=O)[C@@H](NC(=O)SC1CCCC1)C(C)(C)C [Compound 175, Ethyl-2-Methyl-3-[Cyclopentylthiocarbonyl-L-α-(t-Butyl-Gly)-L-(4-Me-Phe)-L-Gln]-E-Propenoate]	>555
CCOC(=O)/C=C/[C@H](CCC(N)=O)NC(=O)[C@H](Cc1ccc(F)cc1)NC(=O)[C@@H](NC(=O)SC1CCCC1)C(C)(C)C [Compound 176, Ethyl-3-[Cyclopentylthiocarbonyl-L-α-(t-Butyl-Gly)-L-(4-F-Phe)-L-Gln]-E-Propenoate]	>714
CCOC(=O)/C(C)=C/[C@H](CCC(N)=O)NC(=O)[C@H](Cc1ccc(F)cc1)NC(=O)[C@@H](NC(=O)SC1CCCC1)C(C)(C)C [Compound 177, Ethyl-2-Methyl-3-[Cyclopentylthiocarbonyl-L-α-(t-Butyl-Gly)-L-(4-F-Phe)-L-Gln]-E-Propenoate]	>200
CCOC(=O)/C=C/[C@H](CCC(N)=O)NC(=O)[C@H](Cc1ccccc1)NC(=O)[C@@H](NC(=O)SC1CCCC1)C(C)(C)SC [Compound 178, Ethyl-3-[Cyclopentylthiocarbonyl-L-(S-Me-Pen)-L-Phe-L-Gln]-E-Propenoate]	>1000
CCOC(=O)/C=C/[C@H](CCC(N)=O)NC(=O)[C@H](Cc1ccccc1)NC(=O)[C@@H](NC(=O)SCC)C(C)C [Compound 180]	>1785
CC(=O)N1CC/C(=C\[C@H](CCC(N)=O)NC(=O)[C@H](Cc2ccc(F)cc2)NC(=O)[C@H](CSc2ccccc2)NC(=O)SC2CCCC2)C1=O [Compound 181]	>1000
CCOC(=O)/C=C/[C@H](CCC(N)=O)NC(=O)[C@H](Cc1ccccc1)NC(=O)[C@H](CC(C)C)NC(=O)SC1CCCC1 [Compound 182]	>556
CCOC(=O)/C=C/[C@H](CCC(N)=O)NC(=O)[C@H](Cc1ccc(C)cc1)NC(=O)[C@@H](NC(=O)SC1CCCC1)C(C)C [Compound 183]	>3333
CCOC(=O)/C=C/[C@H](CCC(N)=O)NC(=O)[C@H](Cc1ccc(F)cc1)NC(=O)[C@@H](NC(=O)SC1CCCC1)C(C)C [Compound 184]	>526
CCOC(=O)/C=C/[C@H](CCC(N)=O)NC(=O)[C@H](Cc1ccc(F)cc1)NC(=O)[C@@H](NC(=O)SC1CCCC1)C(C)(C)Sc1ccc([N+](=O)[O-])cc1 [Compound 185]	>200
Cc1cc(CCCCCCCOc2ccc(C3=NCCO3)cc2)on1 [WIN 51711, reference compound]	>77
Cc1cc(CCCCCCCOc2ccc(C3=N[C@@H](C)CO3)cc2)on1 [WIN 52084, reference compound]	>143
Cc1cc(CCCCCOc2c(Cl)cc(C3=NCCO3)cc2Cl)on1 [WIN 54954, reference compound]	>30
Ethyl-3-[CBZ-L-Leu-L-Phe-L-[N-(2-pyrrolidinone)]-Ala]-E-Propenoate [Compound 5]	157
